We go through 95 compounds from PubChem BioAssay AID624483 (NMMLSC, 2012).

This is a selection; strong and weak results do not stand in their true shares. Some salts and complexes are drawn in separate pieces, as the source files them; their charges need not balance. Active and inactive are the calls of the source. Rule as the data show it: active = fluorescence intensity above about 16000; inconclusive = no clear call, values can overlap the other calls; inactive = below that.

This experiment in a line: compound fluorescence in toxin protease inhibitor counterscreen, primary screen, artefact control for toxin protease inhibitor project, biochemical, multiplex microsphere, HTS (AID 624483). Also: test concentration not given here. Conditions: compound autofluorescence counterscreen, microsphere flow cytometry; stronger effect = higher value.
In the case of `CCC1=CC2Cc3nc4ccc(Cl)cc4c(N)c3C(C1)C2` (stereo not given), the fluorescence intensity is inactive: 3410.
Take `O=C(O)C(O)c1ccc(N(CCCl)CCCl)cc1.c1ccncc1` (stereo not given): the fluorescence intensity was inactive: 3210.
As to `CCOP(=O)(Nc1ccc(C)cn1)OCC`, the fluorescence intensity is inactive: 3500.
To `CN(CCCl)Cc1cc(Cl)c(NC2=NCCN2)c(Cl)c1` belongs inactive: 5590; to `Cc1ccc(S(=O)(=O)N(CCCN)CCCc2c(C)nc(N)[nH]c2=O)cc1.O=[N+]([O-])c1cc([N+](=O)[O-])c(O)c([N+](=O)[O-])c1`, inactive: 5940; to `CC(C)/C=N\N=C(\N)N[N+](=O)[O-]`, inactive: 4000.
To `CN(C(=O)Cc1ccc(Cl)c(Cl)c1)[C@@H]1CCCC[C@H]1N1CCCC1` belongs inactive: 5920.
For `Cc1nc2ccc3ccccc3c2s1.O=[N+]([O-])c1cc([N+](=O)[O-])c(O)c([N+](=O)[O-])c1`, the fluorescence intensity is inactive: 2790.
Then `CC1(CBr)Cn2c(nc3ccccc3c2=O)S1` (stereo not given), with inactive: 3300; and `O=[N+]([O-])c1cc([N+](=O)[O-])c(-c2cnn(-c3ccccc3)c2)c([N+](=O)[O-])c1`, with inactive: 4110.
As for `Cc1cc(C)cc(OP(C)(=O)Nc2ccc(C)cc2C)c1` (stereo not given), the fluorescence intensity was inactive: 11800.
For the compound `Cc1cccc(OCC(=O)OC2CN3CCC2CC3)c1` (stereo not given), the fluorescence intensity was inactive: 2100.
In the case of `O=[As](O)(c1cccc(O)c1)c1cccc(O)c1`, the fluorescence intensity was inactive: 3270.
For `CCOC(=O)c1ccc(NP(C)(=O)Oc2cc(C)cc(C)c2)cc1` (stereo not given), the fluorescence intensity is inactive: 2710.
To `CS(=O)(=O)c1ccc(Cl)c(NC(=O)COC(=O)C(O)(c2ccccc2)c2ccccc2)c1` belongs inactive: 5990.
To `COc1ccccc1OP(C)(=O)Nc1cccc(Br)c1` (stereo not given) belongs inactive: 4590; to `O=[As](O)(O)c1cccnc1`, inactive: 3940; to `COc1cc(C(=O)NCC2(N3CCOCC3)CCCCC2)cc(Cl)c1OC(C)C`, inactive: 4800.
`CCOP(=O)(Nc1cccc2ccccc12)OCC`: the fluorescence intensity was inactive: 2480.
To `Nc1cccc2c([As](=O)(O)O)cccc12` belongs inactive: 3830; to `Cc1ccc(NCCc2c([N+](=O)[O-])cc([N+](=O)[O-])cc2[N+](=O)[O-])cc1`, inactive: 2090; to `Cc1cc(C)cc(OP(C)(=O)Nc2ccccn2)c1` (stereo not given), inactive: 5820.
To `CP(=O)(Nc1cccc(Br)c1)Oc1ccccc1` (stereo not given) belongs inactive: 4120; to `Cc1ccc(C)c(NP(C)(=O)Oc2ccccc2)c1` (stereo not given), inactive: 3760.
Then `CCCOP(=S)(Nc1nc(N)cc(=O)[nH]1)OCCC`, with inactive: 3420; and `Nc1ccccc1[As](=O)(O)c1ccccc1`, with inactive: 3300; and `O=C(O)COc1ccc([As](=O)(O)O)cc1[N+](=O)[O-]`, with inactive: 3090.
For the compound `O=P(Nc1nccs1)(Oc1ccccc1)Oc1ccccc1`, the fluorescence intensity is inactive: 1970.
Turning to `O=P(Nc1nccs1)(c1ccccc1)c1nc2ccccc2s1` (stereo not given), the fluorescence intensity was inactive: 5790.
For the compound `CCOP1(=S)c2c(C)nn(CCC#N)c2N=C(c2ccccc2F)N1C` (stereo not given), the fluorescence intensity was inactive: 10500.
To `O=C(O)c1cccc(Nc2c([N+](=O)[O-])cc([N+](=O)[O-])cc2[N+](=O)[O-])c1` belongs inactive: 4300; to `CCOP1(=S)c2c(C)nn(CCC#N)c2N=C(c2ccc(F)cc2)N1C` (stereo not given), inactive: 7190.
As to `CN(C(=O)Cc1ccccc1)[C@@H]1CC[C@]2(CCCO2)C[C@H]1N1CCCC1`, the fluorescence intensity was inactive: 8080.
Turning to `CC1=NCCc2c1[nH]c1ccccc21.O=[N+]([O-])c1cc([N+](=O)[O-])c(O)c([N+](=O)[O-])c1`, the fluorescence intensity was inactive: 3590.
In the case of `CN(C(=O)Cc1ccc(Cl)c(Cl)c1)[C@H]1CC[C@@]2(CCCO2)C[C@@H]1N1CCCC1`, the fluorescence intensity was inactive: 5950.
Then `O=[N+]([O-])c1ccc2c(c1)nnn2O`, with inactive: 7980.
As for `CN(C)C(=O)c1cc([N+](=O)[O-])cc2c1-c1c(cc([N+](=O)[O-])cc1[N+](=O)[O-])C2=O`, the fluorescence intensity is inactive: 3020.
Then `NC(=O)Nc1ccc([As](=O)(O)O)cc1`, with inactive: 3730; and `COc1ccc(OP(C)(=O)Nc2ccc(SC(F)(F)F)cc2)cc1` (stereo not given), with inactive: 4180.
Regarding `CCOC(=O)c1ccc(NP(C)(=O)Oc2ccc(F)cc2)cc1` (stereo not given), the fluorescence intensity is inactive: 10700.
As to `CCN(CC)CCCNc1ccccc1[N+](=O)[O-].O=[N+]([O-])c1cc([N+](=O)[O-])c(O)c([N+](=O)[O-])c1`, the fluorescence intensity was inactive: 6120.
As to `c1ccc(-c2nn[nH]n2)c(-c2nn[nH]n2)c1`, the fluorescence intensity was inactive: 4230.
As for `CCNC(=S)/N=C(\N)N[N+](=O)[O-]`, the fluorescence intensity was inactive: 4380.
Then `O=C(NC1CCS(=O)(=O)C1)NP(=S)(Oc1ccccc1)Oc1ccccc1` (stereo not given), with inactive: 4320.
With `O=c1c2cc([N+](=O)[O-])ccc2[nH]c2c([N+](=O)[O-])cc([N+](=O)[O-])cc12`, the fluorescence intensity is inactive: 4020.
For `CCCCCOc1ccc(NP(C)(=O)Oc2ccc(Cl)cc2Cl)cc1` (stereo not given), the fluorescence intensity was inactive: 3640.
Then `O=[N+]([O-])c1cc([N+](=O)[O-])c(OC2CCCCC2O)c([N+](=O)[O-])c1` (stereo not given), with inactive: 4100; and `CN(C)C(=O)Oc1noc2ccccc12`, with inactive: 3710.
`CC(NC(=O)COC(=O)C(O)(c1ccccc1)c1ccccc1)c1ccccc1` (stereo not given): the fluorescence intensity is inactive: 3600.
On to `CP(=O)(Nc1ccccc1)Oc1ccc(F)cc1` (stereo not given), for which the fluorescence intensity is inactive: 13100.
Then `CCN(CC)CCCOC(=O)C(O)(c1ccccc1)C1CCCCC1` (stereo not given), with inactive: 3520; and `CCC(=O)N1C2C3N(C(=O)CC)C1C1N(C(=O)CC)C(C(N1C(=O)CC)N3C(=O)CC)N2C(=O)CC`, with inactive: 2790; and `O=C(OC1CN2CCC1CC2)c1ccccc1` (stereo not given), with inactive: 3560.
As for `Cc1ccc(OP(=O)(Nc2ccccn2)Oc2ccc(C)cc2)cc1`, the fluorescence intensity was inactive: 4700.
As to `CC(=O)NC(SC(=S)N(CC(C)C)CC(C)C)C(Cl)(Cl)Cl` (stereo not given), the fluorescence intensity is inactive: 2020.
As to `Cc1c([N+](=O)[O-])cc([N+](=O)[O-])c(Br)c1[N+](=O)[O-]`, the fluorescence intensity is inactive: 3980.
To `COC(=O)c1cc2c(s1)N=C(c1ccccc1)N(C)P2(=O)N1CCOCC1` (stereo not given) belongs inactive: 2800; to `CC(C)c1ccc(OP(C)(=O)Nc2ccc(SC(F)(F)F)cc2)cc1` (stereo not given), inactive: 2480; to `CC(C)(C)C(=O)NC(Sc1ccccc1)C(Cl)(Cl)Cl` (stereo not given), inactive: 4880.
On to `CP(=O)(Nc1ccccc1F)Oc1ccccc1` (stereo not given), for which the fluorescence intensity is inactive: 9460.
As to `CCc1cc(O)c([N+](=O)[O-])c(C)c1[N+](=O)[O-]`, the fluorescence intensity is inactive: 3440.
Regarding `CCOc1ccc(C2=NCC(CBr)S2)cc1` (stereo not given), the fluorescence intensity is inactive: 4530.
Turning to `O=[N+]([O-])c1cc([N+](=O)[O-])c(Nc2ccc(Cl)cc2)c([N+](=O)[O-])c1`, the fluorescence intensity is inactive: 3860.
With `O=P1(Nc2nc3ccc(Cl)cc3s2)COc2ccccc2O1` (stereo not given), the fluorescence intensity is inactive: 9140.
To `CC(=O)Nc1ccc(Oc2c([N+](=O)[O-])cc([N+](=O)[O-])cc2[N+](=O)[O-])cc1` belongs inactive: 4230.
For the compound `CC(=O)Nc1ccc([As](=O)(O)O)c(O)c1`, the fluorescence intensity is inactive: 4720.
In the case of `COc1ccc2c(c1O)-c1c(O)c(OC)cc3c1[C@H](C2)[N+](C)(C)CC3.O=[N+]([O-])c1cc([N+](=O)[O-])c([O-])c([N+](=O)[O-])c1[O-]`, the fluorescence intensity is inactive: 4110.
For the compound `C[C@H]1OP(=O)(Oc2ccccc2)C[C@@H]2O[C@@H]21` (stereo not given in full), the fluorescence intensity was inactive: 3910.
To `C[C@@H]1C=CCP(=O)(Oc2ccccc2)O1` (stereo not given in full) belongs inactive: 4060; to `Cc1ccccc1CN(C)C(=O)COC(=O)C(O)(c1ccccc1)c1ccccc1`, inactive: 2780; to `O=C(OCCN1CCN(CCOCc2ccccc2)CC1)C(O)(c1ccccc1)c1ccccc1`, inactive: 7440.
As to `O=C(OC1CN2CCC1CC2)c1ccc([N+](=O)[O-])cc1` (stereo not given), the fluorescence intensity is inactive: 5880.
On to `COC(=O)C1(C)COP(=O)(NCc2ccccc2)OC1` (stereo not given), for which the fluorescence intensity is inactive: 4220.
Then `CC(=O)c1ccc(N2CC2c2ccncc2)cc1` (stereo not given), with inactive: 3660; and `N#C/C(=C\c1ccc(N(CCBr)CCBr)cc1)C(N)=O`, with inactive: 3830; and `c1nnnn1CCn1cnnn1`, with inactive: 4910.
To `CCOP(C)(=S)SCC(=O)NC(C)(CC)C(=O)O` (stereo not given) belongs inactive: 4210; to `CC(C)C(=O)NC(Sc1ccccc1)C(Cl)(Cl)Cl` (stereo not given), inactive: 2530.
To `O=P(Nc1nccs1)(c1ccccc1)c1ccccc1` belongs inactive: 2980.
Take `CP(=O)(Nc1ccc(SC(F)(F)F)cc1)Oc1ccc(F)cc1` (stereo not given): the fluorescence intensity is inactive: 5760.
Consider `O=[N+]([O-])c1cc([N+](=O)[O-])c(C(F)(F)F)c([N+](=O)[O-])c1O`, for which the fluorescence intensity was inactive: 5900.
To `Cc1ccccc1NP(C)(=O)Nc1ccccc1C` belongs inactive: 4290; to `CP(=O)(Nc1ccc2c(c1)OCCO2)Oc1ccccc1` (stereo not given), inactive: 3070.
Regarding `COc1ccc(NP(C)(=O)Oc2ccccc2OC)cc1` (stereo not given), the fluorescence intensity is inactive: 4840.
On to `C[C@H]1OP(=O)(Oc2ccccc2)[C@H](O)[C@H](O)[C@H]1N=[N+]=[N-]` (stereo not given in full), for which the fluorescence intensity was inactive: 3540.
`CN(C)CCOC(=O)C(O)(c1ccccc1)C1CCCCC1` (stereo not given): the fluorescence intensity was inactive: 2430.
Turning to `O=P(Nc1nc2ccccc2s1)(c1ccccc1)c1ccccc1`, the fluorescence intensity was inactive: 5850.
To `O=P(Nc1ccccn1)(c1ccc(Br)cc1)c1ccc(Br)cc1` belongs inactive: 5090; to `CN(C)C1(CNC(=O)c2ccc(Cl)c(S(N)(=O)=O)c2)CCCCC1`, inactive: 3600.
Then `COc1ccc(N)c([N+](=O)[O-])c1[N+](=O)[O-]`, with inactive: 3920; and `COc1ccc(OP(C)(=O)Nc2cccc(Br)c2)cc1` (stereo not given), with inactive: 10700; and `O=C(OC1CN2CCC1CC2)c1cccc(Cl)c1` (stereo not given), with inactive: 5360.
As to `C(Cc1nn[nH]n1)Cc1nn[nH]n1`, the fluorescence intensity was inactive: 2050.
For `Nc1ccc([As](=O)(O)c2ccc([N+](=O)[O-])cc2)cc1`, the fluorescence intensity was inactive: 4540.
As to `Cc1c(C(c2ccc3c(c2)OCO3)c2c(C)n(C)n(-c3ccccc3)c2=O)c(=O)n(-c2ccccc2)n1C.O=[N+]([O-])c1cc([N+](=O)[O-])c(O)c([N+](=O)[O-])c1`, the fluorescence intensity is inactive: 4470.
